Results on 3 sequences are retold here after paper PMC11156646.

For at least one entry, the source does not settle the construct or the ends of the probe. For some assays here: A weaker result is weaker than the reference pair of the same experiment. For some assays here: At least one verdict was read from the data and is not stated in words by the source.

Data set [1] relates to sigmaA delta1.1 (Staphylococcus aureus N315). The data set is described as follows: fluorescence polarization. Particulars: free sigma, no RNAP, 0-10 uM, better than full-length; 50 mM Tris-HCl pH 8.0, 0.1 M KCl, 10 mM MgCl2; FP 0.1 uM DNA, 25 C 10 min; recombinant protein; label: 3' 6-FAM on template strand. On the technique in general: Polarisation of emitted light reports the rotation of a fluorescent probe.

Data set [2] has as its target sigmaA (Staphylococcus aureus N315) (UniProt Q99TT5). The data set is described as follows: fluorescence polarization. Conditions: free sigma, no RNAP, 0-10 uM, weaker than delta1.1; 50 mM Tris-HCl pH 8.0, 0.1 M KCl, 10 mM MgCl2; FP 0.1 uM DNA, 25 C 10 min; recombinant protein; label: 3' 6-FAM on template strand.
Data set [3] relates to RNAP core enzyme (alpha2, beta, beta', omega, delta, epsilon) + sigmaA. The experiment in a line: EMSA. Particulars: RPo, less than delta1.1; 50 mM Tris-HCl pH 8.0, 0.1 M KCl, 10 mM MgCl2; EMSA 40 nM DNA, 100 nM holoenzyme, 37 C 10 min; recombinant protein; protein details: 10xHis after rpoC. (A gel shift assay detects complexes by their altered migration in electrophoresis.)

Data set [4] has as its system RNAP core enzyme (alpha2, beta, beta', omega, delta, epsilon) + sigmaA delta1.1. The data set is described as follows: EMSA. Particulars: RPo increased vs full-length sigmaA; 50 mM Tris-HCl pH 8.0, 0.1 M KCl, 10 mM MgCl2; EMSA 40 nM DNA, 100 nM holoenzyme, 37 C 10 min; recombinant protein; protein details: 10xHis after rpoC.
Data set [5] concerns RNAP core enzyme (alpha2, beta, beta', omega, delta, epsilon) + sigmaB. The data set is described as follows: EMSA. Conditions: RPo; 50 mM Tris-HCl pH 8.0, 0.1 M KCl, 10 mM MgCl2; EMSA 40 nM DNA, 100 nM holoenzyme, 37 C 10 min; recombinant protein; protein details: 10xHis after rpoC.

For “AAAATAATTAAAAATAATTCTTGACATACAAAAACTTACGAGTTATAATTAAATCTTGTAAGTGACAAACG (double strand) [rrnB P1 FP scaffold]”, the binding result in data set [1] is “binds”; in data set [2], “binds more weakly”. As to “AAAATAATTAAAAATAATTCTTGACTTACAAAAACTTACGAGTTATAATTAAATCATAAATTTGAGAGAGGAGTTTAAATATGGCTGGTTCTCGATCGAGGAGTTTAAATATGGCTGGTTCTCGCGAGAATTCCGAATAGCCATCCCAATCGATATCGAGGAGTTTAAATATGGCTGGTTCTCGCGAGAATTCCGAATAGCCATCCCAATCGATATCGAGGAGTTTAAATATGGCTGGTTCTCGCGAGAATTCCGAATAGCCATCCCAATCGATATCGAGGAGTTTAAATATGGCTGGTTCTCGCGAGAATTCCGAATAGCCATCCCAATCGATCGAGAATTCCGAATAGCCATCCCAATCGAACAGGCCTGCTGGTAATCGCAGGCCTTTTTATTTGGATCCCCGGGTAGAATTCTCTCTC (double strand) [rrnB P1 EMSA fragment (ribogreen template)]”, the binding result in data set [3] and in data set [4] was “binds” in each case.

For the sequence “GTTATGAATTTAATGAATGAGTTTAAAGCCCATGTAAAAGGGGTATCAGTACTTATAAATTTGAGAGAGGAGTTTAAATATGGCTGGTTCTCGATCGAGGAGTTTAAATATGGCTGGTTCTCGCGAGAATTCCGAATAGCCATCCCAATCGATATCGAGGAGTTTAAATATGGCTGGTTCTCGCGAGAATTCCGAATAGCCATCCCAATCGATATCGAGGAGTTTAAATATGGCTGGTTCTCGCGAGAATTCCGAATAGCCATCCCAATCGATATCGAGGAGTTTAAATATGGCTGGTTCTCGCGAGAATTCCGAATAGCCATCCCAATCGATCGAGAATTCCGAATAGCCATCCCAATCGAACAGGCCTGCTGGTAATCGCAGGCCTTTTTATTTGGATCCCCGGGTAGAATTCTCTCTC (double strand) [PyabJ EMSA fragment (ribogreen template)]”, the binding result in data set [5] is “binds”.
